Assays:
[1] = biological target: human Kv1.3 channel (human), P22001; test: whole cell patch clamp; WCPC, IC50 Transit; settings: chains peptide; modification not given
[2] = biological target: T1, human Kv1.1 channel (human), Q09470; test: whole cell patch clamp; WCPC; settings: chains peptide; modification not given
T1 chain: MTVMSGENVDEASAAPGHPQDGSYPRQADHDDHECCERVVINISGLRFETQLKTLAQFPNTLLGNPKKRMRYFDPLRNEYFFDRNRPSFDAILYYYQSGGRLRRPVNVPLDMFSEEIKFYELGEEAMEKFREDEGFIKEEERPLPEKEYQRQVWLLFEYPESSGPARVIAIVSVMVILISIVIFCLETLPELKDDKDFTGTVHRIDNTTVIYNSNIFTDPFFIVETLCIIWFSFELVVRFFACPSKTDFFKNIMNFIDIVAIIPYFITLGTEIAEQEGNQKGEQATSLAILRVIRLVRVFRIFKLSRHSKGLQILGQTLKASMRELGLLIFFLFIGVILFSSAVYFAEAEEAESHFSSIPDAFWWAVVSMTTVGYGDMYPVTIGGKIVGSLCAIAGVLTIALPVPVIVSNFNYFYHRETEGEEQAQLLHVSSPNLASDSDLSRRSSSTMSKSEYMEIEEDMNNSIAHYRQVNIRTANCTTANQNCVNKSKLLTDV

[3] = biological target: human Kv1.3 channel (human), P22001; test: whole cell patch clamp; WCPC; settings: chains peptide; modification not given
[4] = biological target: human Kv1.3 channel (human), P22001; test: cell-based or functional assay
[5] = biological target: T1, human Kv1.1 channel (human), Q09470; test: cell-based or functional assay
[6] = biological target: human Kv1.3 voltage-gated potassium channel (human), P22001; test: cell-based or functional assay

Binder GVIINVKCKISAQCLEPCKKAGMRFGKCMNGKCHCTPK [OSK1[Ala-12]] has an IC50 [1] of 25 pM, an IC50 [2] of 440 pM and an IC50 [3] of 25 pM.

Binder GVIINVKCKASRQCLEPCKKAGMRFGKCMNGKCHCTPK (modifications not checked) [OSK1 Alanine Analog I10A] has an IC50, WB/IL-2 [4] of 50 pM.

Work on GVIINVKCKIARQCLEPCKKAGMRFGKCMNGKCHCTPK (modifications not checked) [OSK1 Alanine Analog S11A] yielded an IC50, WB/IL-2 [4] of 90 pM.

GVIINVKCKISRQCLEPCKKAAMRFGKCMNGKCHCTPK (modifications not checked) [OSK1 Alanine Analog G22A] gave an IC50, Kv1.1 (IonWorks electrophysiology) [5] of over 3000 pM and an IC50, Kv1.3 (IonWorks electrophysiology) [4] of over 3000 pM.

For GVIINVKCKISRQCLEPCKKAGMAFGKCMNGKCHCTPK (modifications not checked) [OSK1 Alanine Analog R24A], the IC50, Kv1.3 (IonWorks electrophysiology) [4] was over 3000 pM.

For GVIINVKCKISRQCLEPCKKAGMRFGACMNGKCHCTPK (modifications not checked) [OSK1 Alanine Analog K27A], the IC50, Kv1.1 (IonWorks electrophysiology) [5] was over 3000 pM.

With GVIINVKCKISRQCLEPCKKAGMRFGKCMAGKCHCTPK (modifications not checked) [OSK1 Alanine Analog N30A] the IC50, Kv1.1 (IonWorks electrophysiology) [5] was over 3000 pM.

For GVIINVKCKISRQCLEPCKKRGMRFGKCMNGKCHCTPK (modifications not checked) [OSK1 Arginine Analog A21R], the IC50, WB/IL-2 [4] was 90 pM.

GVIINVKCKISRQCLEPCKKAGMRFRKCMNGKCHCTPK (modifications not checked) [OSK1 Arginine Analog G26R] showed an IC50, WB/IFNg [4] of 100000 pM.

GVIINVKCKISRQCLEPCKKAGMRFGKCRNGKCHCTPK (modifications not checked) [OSK1 Arginine Analog M29R] showed an IC50, Kv1.3 (IonWorks electrophysiology) [4] of 200 pM.

In the case of GVIINVKCKISRQCLEPCKKAGMRFGKCMNGKCHCRPK (modifications not checked) [OSK1 Arginine Analog T36R], the IC50, WB/IFNg [4] is reported as 10000 pM.

With GVIINVKCKISRQCLEPCKKAGMRFGKCMNGKCHCTPR (modifications not checked) [OSK1 Arginine Analog K38R] the IC50, WB/IFNg [4] was 40 pM.

GVIIEVKCKISRQCLEPCKKAGMRFGKCMNGKCHCTPK (modifications not checked) [OSK1 Glutamic Acid Analog N5E] showed an IC50, WB/IL-2 [4] of 100 pM.

Binder GVIINVKCKISEQCLEPCKKAGMRFGKCMNGKCHCTPK (modifications not checked) [OSK1 Glutamic Acid Analog R12E] has an IC50, WB/IFNg [4] of 2000 pM.

GVIINVKCKISRQCLEPCKKAGMRFEKCMNGKCHCTPK (modifications not checked) [OSK1 Glutamic Acid Analog G26E] was tested, and the IC50, WB/IFNg [4] was 100000 pM and the IC50, WB/IL-2 [4] was 100000 pM.

Binder GVIINVKCKIRRQCLEPCKKAGMRFGKCMNGKCHCTPK (modifications not checked) [OSK1 analogue S11R] has a Kv1.3 Selectivity (=Kv1.1/Kv.3 IC50) [6] of 228.

Work on GVIINVKCKISAQCLEPCKKAGMRFGKCMNGKCHCTPK (modifications not checked) [OSK1 analogue R12A] yielded a Kv1.3 Selectivity (=Kv1.1/Kv.3 IC50) [6] of 17.

In the case of GVIINVKCKISRQCEEPCKKAGMRFGKCMNGKCHCTPK (modifications not checked) [OSK1 analogue L15E], the Kv1.3 Selectivity (=Kv1.1/Kv.3 IC50) [6] is reported as 342.

Binder GVIINVKCKISRQCLEPCKKAGMRFGACMNGKCHCTPK (modifications not checked) [OSK1 analogue K27A] has a Kv1.3 Selectivity (=Kv1.1/Kv.3 IC50) [6] of 35.

For GVIINVKCKISRQCLEPCKKAGMRFGKCANGKCHCTPK (modifications not checked) [OSK1 analogue M29A], the Kv1.3 Selectivity (=Kv1.1/Kv.3 IC50) [6] was 105.

GVIINVKCKISRQCLEPCKKAGMRFGKCRNGKCHCTPK (modifications not checked) [OSK1 analogue M29R] gave a Kv1.3 Selectivity (=Kv1.1/Kv.3 IC50) [6] of 30.

GVIINVKCKISRQCLEPCKKAGMRFGKCMAGKCHCTPK (modifications not checked) [OSK1 analogue N30A] gave a Kv1.3 Selectivity (=Kv1.1/Kv.3 IC50) [6] of 14.

GVIINVKCKISRQCLEPCKKAGMRFGKCMNGKCACTPK (modifications not checked) [OSK1 analogue H34A] was tested, and the Kv1.3 Selectivity (=Kv1.1/Kv.3 IC50) [6] was 797.

GVIINVKCKISRQCLEPCKKAGMRFGKCMNGKCECTPK (modifications not checked) [OSK1 analogue H34E] gave a Kv1.3 Selectivity (=Kv1.1/Kv.3 IC50) [6] of 30.

Binder GVIINVKCKISRQCLEPCKKAGMRFGKCMNGKCHCEPK (modifications not checked) [OSK1 analogue T36E] has a Kv1.3 Selectivity (=Kv1.1/Kv.3 IC50) [6] of 44.

Work on GVIINVKCKISRQCLEPCKKAGMRFGKCMNGKCHCTEK (modifications not checked) [OSK1 analogue P37E] yielded a Kv1.3 Selectivity (=Kv1.1/Kv.3 IC50) [6] of 65.

Work on GVIINVKCKASRQCLEPCKKAGMRFGKCMNGKCHCTPK (modifications not checked) [OSK1 analog Ala-10 (SEQ ID No: 1408)] yielded an Average IC50, thapsigargin-induced IL-2 in 50% human whole blood [4] of 50 pM.

Reference: patent US20090299044A1
